The record followed here is patent US10961279B2 (priority 2011, dated 2021).

This experiment relates to CTLL-2 cells. The experiment is described as follows: CTLL-2 assay (proliferation, Click-it labelling, flow cytometry). Conditions: FIG. 2; Flavi virus derived peptide, dimerized vs monomeric; concentrations in μM. It is filed as cell-based. In general terms: A flow cytometer gives signals particle by particle.

For DRGWGNGCGLFGKG, the “inhibition of proliferation of CTLL-2 cells” value is listed as “significant inhibition of proliferation”.
